Assay results taken from PubChem BioAssay AID602233 (National Center for Advancing Translational Sciences (NCATS), 2012).
The entries are a selection whose mix differs from that of the whole data set. Some structures show a salt or complex split into parts, the way the source records it. Calls of active or inactive are those of the source. Calls follow the shape of the dose curve; as a rule, active = well fitted inhibition curve with a large enough effect; inconclusive = small, poorly fitted or top-dose-only effect; inactive = no such curve, though single readings can be large or run the other way.

biological target: Phosphoglycerate kinase, glycosomal (Trypanosoma brucei brucei) (UniProt P07378); assay: qHTS Assay to Find Inhibitors of Phosphoglycerate Kinase; conditions: PGK/GAPDH coupled, Kinase-Glo luminescence, 60 min; activity change, negative = inhibition: at 57.5 µM (top of the series); also: nearly all actives have a fitted effect of over 60% in size
Text: Several species of the Trypanosomatidae family of parasitic protozoans cause a spectrum of diseases throughout the tropical and subtropical world. Sleeping sickness, caused by two subspecies of Trypanosoma brucei, is endemic to areas of sub-Saharan Africa, while Chagas disease, a manifestation of Trypanosoma cruzi infection, is prevalent throughout Central and South America. In addition, many species of Leishmania are responsible for a range of cutaneous and visceral diseases, causing ulcers, destructive lesions and kalaazar, a lethal infection of the viscera. Collectively, these organisms infect 30 million people worldwide (~500 million live in endemic areas), and account for ~130,000 deaths annually. Given their debilitating and prevalent nature, trypanosomatid parasites impose a heavy medical, economic and social burden on entire populations, primarily in the developing world. The problem is further exacerbated by the fact that existing treatments have progressed little in the past 50 years, and current drugs show high toxicity and poor efficacy. […] Blood-stream stages of T. brucei are entirely dependent on glycolysis as a source of ATP, and the tricarboxylic acid cycle and oxidative phosphorylation are both repressed. Glycolysis in axenically cultured T. cruzi, representing the intracellular pathogenic stage, is also essential for these parasites. […] Previous studies have shown that the glycolytic enzyme, phosphoglycerate kinase (PGK), is a viable target for drugs to kill these parasites. […] NIH Molecular Libraries Probe Production Network [MLPCN] NIH Chemical Genomics Center [NCGC] MLPCN Grant: R03 MH093212 PI Name: Malcolm Walkinshaw, University of Edinburgh
3ul of substrate/PGK buffer (columns 1,2,5-48) are dispensed into Greiner white solid bottom 1536-well assay plates; columns 3-4 receive only TEA buffer as 0x PGK controls. Compounds are then transferred via Kalypsys pin tool equipped with 1536-pin array (10nl slotted pins, V&P Scientific, San Diego, CA). Following addition of compound, 1ul of GAPDH (100nM final concentration, all columns) is added to initiate the reaction (this upstream coupling enzyme is necessary for in-well production of PGK substrate, 1,3-bisphosphoglycerate (1,3-BPG), which is unstable and not commercially available). The plates are then incubated at room temperature for 60 minutes. Kinase-Glo Plus reagent is added (2ul) and plates incubated for 10 minutes, before being transferred to a ViewLux high-throughput CCD imager (PerkinElmer) wherein single end-point measurements of luminescence are acquired using a clear filter. All reagents are diluted in an assay buffer consisting of 100mM TEA (pH 7.6), 5mM MgCl2 and 0.01% Tween-20.
% is scaled to controls: 0 for no effect and ±100 for the full control effect.

SMILES | activity change, negative = inhibition
CN1CCN(CCOC(=O)C(O)(c2ccccc2)c2ccccc2)CC1 | inactive
O=C(NCC1(N2CCOCC2)CCCCC1)c1cc(=O)[nH]c2ccccc12 | inactive: -0.959%
COc1cc(C(=O)NCC2(N3CCCCC3)CCCCC2)ccc1OC(F)F | inactive: 6.85%
O=C(NCC1(N2CCCCC2)CCCCC1)c1ccc(OC(F)F)cc1 | inactive: -6.73%
CCOc1ccc(C(=O)NCC2(N3CCOCC3)CCCCC2)cc1 | inactive: -4.84%
O=C(NCC1(N2CCCCC2)CCCCC1)c1cccc([N+](=O)[O-])c1 | inactive: 0.0313%
CSc1ccc(C(=O)NCC2(N3CCOCC3)CCCCC2)cc1 | inactive: -1.52%
N#CC1(Nc2ccccc2)CCN(CCc2ccccc2)CC1 | inactive: 9.82%
CCN1CCC(Nc2ccc(Cl)cc2)CC1 | inactive: 1.97%
COc1ccc2c(c1O)-c1c(O)c(OC)cc3c1[C@H](C2)[N+](C)(C)CC3.O=[N+]([O-])c1cc([N+](=O)[O-])c([O-])c([N+](=O)[O-])c1[O-] | inactive: -13.3%
O=C(NCC1(N2CCCCC2)CCCCC1)c1cncc(Br)c1 | inactive: -2.9%
CN1CCC(Nc2cccc(F)c2)CC1 | inactive: -1.13%
O=C(OC1CN2CCC1CC2)c1ccc([N+](=O)[O-])cc1 (stereo not drawn) | inactive: -1.07%
CCCOc1ccc(C(=O)NCC2(N(C)C)CCCCC2)cc1OC | inactive
O=C(NCC1(N2CCOCC2)CCCCC1)c1ccccc1Br | inactive: 0.137%
Cc1ccc(C(=O)NCC2(N(C)C)CCCCC2)o1 | inactive: -7.74%
CCCCOc1ccccc1C(=O)NCC1(N2CCOCC2)CCCCC1 | inactive: -3.4%
O=[N+]([O-])c1cc([N+](=O)[O-])c(Nc2ccc(Cl)cc2)c([N+](=O)[O-])c1 | inactive: -3.05%
CN(C)c1cccc(C(=O)NCC2(N3CCCCC3)CCCCC2)c1 | inactive: -9.01%
O=[N+]([O-])c1cc([N+](=O)[O-])c(OC2CCCCC2O)c([N+](=O)[O-])c1 (stereo not drawn) | inactive
COc1ccc(CN(CCCl)CCCl)cc1Cl | inactive: 7.82%
CC(C)c1ccc(NC2CCN(C(=O)OC(C)(C)C)CC2)cc1 | inactive
O=C(NCC1(N2CCOCC2)CCCCC1)c1cc(F)c(F)cc1Cl | inactive: 15.4%
COc1cc(OC)c(C(=O)NCC2(N(C)C)CCCCC2)cc1OC | inactive: -2.4%

SMILES | activity change, negative = inhibition
O=C(NCC1(N2CCOCC2)CCCCC1)c1cc2ccccc2o1 | inactive: 2.94%
Cc1cc(C)cc(N(C(=O)c2ccccc2)C2CCN(C(=O)OC(C)(C)C)CC2)c1 | inactive: -6.12%
O=C(NCC1(N2CCCCC2)CCCCC1)c1ccc(Cl)nc1 | inactive
COc1ccc(Cl)cc1C(=O)NCC1(N2CCOCC2)CCCCC1 | inactive: -4.31%
O=C(OC1CN2CCC1CC2)C1c2ccccc2Oc2ccccc21 (stereo not drawn) | inactive: -3.85%
O=C(NCC1(N2CCCCC2)CCCCC1)c1ccc(Cl)s1 | inactive: 0.448%
N#CC1(Nc2ccccc2)CCN(Cc2ccccc2)CC1 | inactive: -5.69%
O=C(NCC1(N2CCCCC2)CCCCC1)c1cccs1 | inactive: -3.05%
O=C(NCC1(N2CCCCC2)CCCCC1)c1ccc(=O)[nH]c1 | inactive
COc1ccc(C(=O)NCC2(N3CCCCC3)CCCCC2)c(OC)c1OC | inactive: -0.707%
COc1ccc(C(=O)NCC2(N3CCCCC3)CCCCC2)cc1 | inactive: -6.58%
Cc1cccc(NC2(C#N)CCN(Cc3ccccc3)CC2)c1 | inactive: 8.72%
CSc1ccccc1C(=O)NCC1(N2CCCCC2)CCCCC1 | inactive: -5.66%
COc1cc(C(=O)NCC2(N(C)C)CCCCC2)ccc1OC(F)F | inactive: -4.3%
CCOC(=O)N1CCC(Nc2cccc(C)c2)CC1 | inactive: -0.544%
CCOc1ccc(C)cc1CN(CCCl)CCCl | inactive
O=C1CCN(Cc2ccccc2)CC1 | inactive: 1.17%
O=C(NCC1(N2CCOCC2)CCCCC1)c1ccc(Cl)cc1 | inactive: -1.92%
CCOC(=O)N1CCC(Nc2ccc(F)cc2)CC1 | inactive: -5.24%
COc1ccc(NC2CCN(CCc3ccccc3)CC2)c(OC)c1 | inactive: 8.74%
O=C(NCC1(N2CCCCC2)CCCCC1)c1ccc(F)cc1 | inactive: 5.64%
CCCCOc1ccc(C(=O)NCC2(N3CCOCC3)CCCCC2)cc1 | inactive: 0.649%
O=P1(N(CCCl)CCCl)SCCCS1 | inactive: -1.18%
COc1ccccc1C(=O)NCC1(N2CCOCC2)CCCCC1 | inactive: -5.3%
